Results of unrelated studies side by side (data: NIAID ChemDB).

All rows: cytotoxicity tests; cells: C8166; measure: CC50

Conditions beyond the fields shown may differ between rows. An empty or dashed field is not shown. CCn: concentration that lowers growth or viability of the cells by n%.

structure	method	value
N#Cc1ccc2oc3ccccc3c2c1	-	>200 µg/mL
COc1cc(-c2oc3cc(O)cc(O)c3c(=O)c2O[C@@H]2O[C@H](CO[C@@H]3O[C@@H](C)[C@H](O)[C@@H](O)[C@H]3O)[C@@H](O)[C@H](O)[C@H]2O)ccc1OC1O[C@H](CO)[C@@H](O)[C@H](O)[C@H]1O	-	>100 µg/mL
Cc1cn([C@H]2C[C@H](N=[N+]=[N-])[C@@H](COP(=O)(Oc3ccc(C#N)cc3)Oc3ccc(C#N)cc3)O2)c(=O)[nH]c1=O	-	500 µM
CC1(C)Oc2cc3oc(=O)ccc3cc2[C@@H](O)[C@@H]1O	MTT	>200 µM
C[C@H](CC(=O)CC(C)(C)O)[C@H]1CC[C@@]2(C)C3C(=O)[C@@H]4O[C@]45C(CCC(=O)C5(C)C)[C@]3(C=O)CC[C@]12C	-	>200 µg/mL
CC1(C)S[C@H]([C@H](NC(=O)Cc2ccccc2)C(=O)NCc2ccccc2)N[C@H]1C(=O)NCCNC(=O)[C@@H]1N[C@@H]([C@H](NC(=O)Cc2ccccc2)C(=O)NCc2ccccc2)SC1(C)C	-	>110 µM
O=C(/C=C/c1ccc(O)c(O)c1)O[C@H]1[C@H](O)C[C@](O)(C(=O)O)C[C@H]1OC(=O)/C=C/c1ccc(O)c(O)c1	-	40 µg/mL
Nc1ccn([C@H]2CC[C@@H](CO)O2)c(=O)n1	-	>1000 µM
C=C(C)[C@H](O)COc1cc(OC)c2c(c1)C(=O)c1cc(O)cc(O)c1-2	MTT	>200 µg/mL
C=C(C)/C=C/C[C@@H](C)[C@H]1CC[C@@]2(C)C3[C@@H](O)C=C4C(CC[C@H](O)C4(C)C)[C@]3(C=O)CC[C@]12C	-	16.2 µg/mL
COC(=O)[C@H](C)NP(=O)(OC[C@H]1O[C@@H](n2cc(C)c(=O)[nH]c2=O)C[C@@H]1N=[N+]=[N-])OCC(Cl)(Cl)Cl	-	200 µM
O=[N+]([O-])c1ccc2oc3ccccc3c2c1	-	>200 µg/mL
O=c1[nH]cnc2c1ncn2[C@H]1CC[C@@H](CO)O1	-	967 µM
Cc1cn([C@H]2C[C@H](N=[N+]=[N-])[C@@H](CO)O2)c(=O)[nH]c1=O	-	>200 µg/mL
O=C(O[C@@H]1Cc2c(O)cc(O)cc2O[C@@H]1c1ccc(O)c(O)c1)c1cc(O)c(O)c(O)c1	-	>100 µg/mL
COc1cc2oc(=O)ccc2cc1C[C@@H](OC)C(C)(C)O	MTT	>200 µM
C[C@H](C(=O)O)[C@H]1CC[C@@]2(C)C3C(=O)[C@H]4O[C@]45C(CCC(=O)C5(C)C)[C@]3(C=O)CC[C@]12C	-	145 µg/mL
Cc1cn([C@H]2C[C@H](N=[N+]=[N-])[C@@H](COP(=O)(Oc3ccc(C(F)(F)F)cc3)Oc3ccc(C(F)(F)F)cc3)O2)c(=O)[nH]c1=O	-	500 µM
CCNC(=O)[C@@H](NC(=O)Cc1ccccc1)[C@@H]1N[C@@H](C(=O)NCCNC(=O)[C@@H]2N[C@@H]([C@H](NC(=O)Cc3ccccc3)C(=O)NCC)SC2(C)C)C(C)(C)S1	-	>100 µM
O=[N+]([O-])c1ccc2oc3cc(F)ccc3c2c1	-	>200 µg/mL
C=C(C)[C@@H]1Cc2cc3ccc(=O)oc3cc2O1	MTT	>200 µM
O=C1C[C@@H](c2cc(O)ccc2O)Oc2cc(O[C@@H]3C[C@@H](O)[C@H](O)[C@@H](CO)O3)cc(O)c21	-	>100 µg/mL
CN(C)c1ccc(CNC(=O)[C@@H](NC(=O)Cc2ccccc2)[C@@H]2N[C@@H](C(=O)NCCNC(=O)[C@@H]3N[C@@H]([C@H](NC(=O)Cc4ccccc4)C(=O)NCc4ccc(N(C)C)cc4)SC3(C)C)C(C)(C)S2)cc1	-	>100 µM
C=CC(C)(C)c1cc2cc3c(c(CC=C(C)C)c2oc1=O)O[C@H](C(C)(C)O)C3	MTT	>200 µM
CN[C@@H]1[C@H](O[C@@H]2OC[C@@H](O)[C@H](O)[C@H]2O)[C@@H](O)[C@H](O[C@H]2c3cc(C)c(C(=O)N[C@H](C)C(=O)O)c(O)c3-c3c(cc4c(c3O)C(=O)c3cc(OC)cc(O)c3C4=O)[C@@H]2O)O[C@@H]1C	-	>50 µg/mL
COc1ccc2oc3ccc([N+](=O)[O-])cc3c2c1	-	60.5 µg/mL
Cc1cn([C@H]2C[C@H](N=[N+]=[N-])[C@@H](COP(=O)(Oc3ccc([N+](=O)[O-])cc3)Oc3ccc([N+](=O)[O-])cc3)O2)c(=O)[nH]c1=O	-	40 µM
Oc1cc(O)c2c(c1)O[C@H](c1cc(O)c(O)c(O)c1)[C@H](O)C2	-	>100 µg/mL
O=C1c2c(O)cc(O)cc2O[C@H](c2ccc(O)c(O)c2)[C@H]1O	-	100 µg/mL
COc1cc([C@H](O)[C@H](CO)Oc2c(O)cc(C(=O)CCO)cc2O)ccc1O	MTT	247.2 µg/mL
COc1cc(-c2oc3cc(O)cc(O)c3c(=O)c2O[C@@H]2O[C@H](CO[C@@H]3O[C@@H](C)[C@H](O)[C@@H](O)[C@H]3O)[C@@H](O)[C@H](O)[C@H]2O)ccc1O	-	>200 µg/mL
CC1(C)S[C@H]([C@H](NC(=O)Cc2ccccc2)C(=O)NCc2ccccc2)N[C@H]1C(=O)NCCNC(=O)[C@@H]1N[C@@H]([C@H](NC(=O)Cc2ccccc2)C(=O)NCc2ccccc2)SC1(C)C	-	>100 µM
O=C1c2c(O)cc(O)cc2O[C@H](c2ccc(O)cc2)[C@H]1O	-	>200 µg/mL
CC1(C)S[C@H]([C@H](NC(=O)Cc2ccccc2)C(=O)NCC2CCCCC2)N[C@H]1C(=O)NCCNC(=O)[C@@H]1N[C@@H]([C@H](NC(=O)Cc2ccccc2)C(=O)NCC2CCCCC2)SC1(C)C	-	>100 µM
O=C1c2c(O)cc(O[C@@H]3C[C@@H](O)[C@H](O)[C@@H](CO)O3)cc2O[C@H](c2ccc(O)cc2)[C@H]1O	-	200 µg/mL
N#Cc1ccc2oc3cc(F)ccc3c2c1	-	150 µg/mL
C[C@H](CC(=O)CC(C)(C)O)[C@H]1CC[C@@]2(C)C3C(=O)C=C4C(CCC(=O)C4(C)C)[C@]3(C=O)CC[C@]12C	-	62.8 µg/mL
Cc1cn([C@H]2C[C@H](N=[N+]=[N-])[C@@H](COP(=O)(Oc3ccc([N+](=O)[O-])cc3)Oc3ccc([N+](=O)[O-])cc3)O2)c(=O)[nH]c1=O	-	40 µM

A second listing of 5 rows from above:

| structure | method | value |
|---|---|---|
| CCNC(=O)[C@@H](NC(=O)Cc1ccccc1)[C@@H]1N[C@@H](C(=O)NCCNC(=O)[C@@H]2N[C@@H]([C@H](NC(=O)Cc3ccccc3)C(=O)NCC)SC2(C)C)C(C)(C)S1 | - | >100 µM |
| Nc1ccn([C@H]2CC[C@@H](CO)O2)c(=O)n1 | - | >1000 µM |
| COc1cc2oc(=O)ccc2cc1C[C@@H](OC)C(C)(C)O | MTT | >200 µM |
| CC1(C)S[C@H]([C@H](NC(=O)Cc2ccccc2)C(=O)NCC2CCCCC2)N[C@H]1C(=O)NCCNC(=O)[C@@H]1N[C@@H]([C@H](NC(=O)Cc2ccccc2)C(=O)NCC2CCCCC2)SC1(C)C | - | >100 µM |
| O=C1c2c(O)cc(O)cc2O[C@H](c2ccc(O)c(O)c2)[C@H]1O | - | 100 µg/mL |